PubChem BioAssay AID1532 (PCMD, 2009)
Only a part is listed here, and it is no random draw. Calls of active or inactive are those of the source. Cut-off read from the data, not from the text of the source: active = inhibition above about 30% (passing the limit was not always enough); inconclusive = no clear call, values can overlap the other calls.

The compounds below were run on RmlC (dTDP-4-dehydrorhamnose 3,5-epimerase) and RmlD (dTDP-4-dehydrorhamnose reductase), coupled enzyme assay (assay: RmlC and RmlD coupled enzyme inhibitors, primary screen, biochemical, 384-well, compound mixtures, retest (AID 1532)). Details: 384-well mixture HTS, at 5.5 µM, stronger effect = higher value.

| SMILES | inhibition |
| --- | --- |
| N#CC1(Nc2ccccc2)CCN(CCc2ccccc2)CC1 | inactive: -15.6% |
| O=C(NCC1(N2CCOCC2)CCCCC1)c1cc(=O)[nH]c2ccccc12 | inactive: 34.2% |
| CN1CCC(Nc2cccc(F)c2)CC1 | inactive: 6.29% |
| O=C(NCC1(N2CCOCC2)CCCCC1)c1cc2ccccc2o1 | inactive: -5.25% |
| O=C(OC1CN2CCC1CC2)C1c2ccccc2Oc2ccccc21 (stereo not given) | inactive: 39.2% |
| COc1ccc(NC2CCN(CCc3ccccc3)CC2)c(OC)c1 | inactive: 0.69% |
| Fc1ccccc1NC1CCN(Cc2ccccc2)CC1 | inactive: 9.27% |
| CCOc1ncccc1C(=O)NCC1(N2CCOCC2)CCCCC1 | inactive: 5.15% |
| CCC(CO)(C(=O)OC1CN2CCC1CC2)c1ccccc1 (stereo not given) | inactive: 5.96% |
| c1ccc(CN2CCC(Nc3ccccc3)CC2)cc1 | inactive: 0.06% |
